PubChem BioAssay AID1259414 – Drosophila RNAi Screening Center – 2018
Test: 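Fly genes that alter Wolbachia amount inside host cells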 (primary screen). Cell system: Drosophila JW18 cells infected with Wolbachia. Reagents: long dsRNA against Drosophila genes, 0.25 µg dsRNA per well of a 384-well plate. Timing: 5 days. Challenge: cells persistently infected with Wolbachia before knock-down; no added drug. Detection: 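Automated imaging of bacterial rRNA staining divided by host cell count, reported as plate-normalised robust z-score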. Scale: Wolbachia per cell robust z: higher = more Wolbachia per host cell than the plate typical. Call rule: 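Active if absolute robust z reaches 1.5 in two or more of three replicates, leaving out multi- or no-target dsRNAs, genes unexpressed in JW18 and A1 wells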.
The screen tested about 24,000 reagents; below is a random part of those with a known target gene and a result. Over the whole deposit, about 1,210 (5%) got an active call. 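Inactive calls also include excluded dsRNAs with several or no targets, genes unexpressed in JW18, and well A1, regardless of score.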 No sequences are given here.

The opening 7 entries, ahead of the listing:
gene knocked down | dsRNA | Wolbachia per cell robust z, rep 1 | Wolbachia per cell robust z, rep 2 | Wolbachia per cell robust z, rep 3 | Outcome
CG15353 (GeneID 50191) | DRSC00383 | -0.619 | -0.215 | 0.222 | inactive
CG15353 (GeneID 50191) | DRSC24727 | 1.78 | -0.304 | -0.02 | inactive
CG1671 (GeneID 36019) | DRSC06617 | 0.709 | 0.012 | 0.0451 | inactive
CtsL3 (GeneID 40741) | DRSC12171 | -2.51 | -0.597 | 0.0578 | inactive
CtsL3 (GeneID 40741) | DRSC27036 | -6.28 | -0.901 | -0.461 | inactive
CG5541 (GeneID 2768877) | DRSC19946 | 1.32 | 0.459 | 1.13 | inactive
Ack-like (GeneID 36442) | DRSC07500 | 0.493 | -1.01 | -0.981 | inactive

The listing, from the first entry:
gene knocked down | dsRNA | Wolbachia per cell robust z, rep 1 | Wolbachia per cell robust z, rep 2 | Wolbachia per cell robust z, rep 3 | Outcome
CG15353 (GeneID 50191) | DRSC00383 | -0.619 | -0.215 | 0.222 | inactive
CG15353 (GeneID 50191) | DRSC24727 | 1.78 | -0.304 | -0.02 | inactive
CG1671 (GeneID 36019) | DRSC06617 | 0.709 | 0.012 | 0.0451 | inactive
CtsL3 (GeneID 40741) | DRSC12171 | -2.51 | -0.597 | 0.0578 | inactive
CtsL3 (GeneID 40741) | DRSC27036 | -6.28 | -0.901 | -0.461 | inactive
CG5541 (GeneID 2768877) | DRSC19946 | 1.32 | 0.459 | 1.13 | inactive
Ack-like (GeneID 36442) | DRSC07500 | 0.493 | -1.01 | -0.981 | inactive
Ack-like (GeneID 36442) | DRSC21845 | -0.478 | -2.06 | -1.42 | inactive
Ack-like (GeneID 36442) | DRSC28341 | -1.23 | -0.301 | -0.36 | inactive
Tb (GeneID 43212) | DRSC15815 | -1.09 | -1.63 | -1.72 | inactive
Tb (GeneID 43212) | DRSC23554 | 0.175 | -0.325 | 0.62 | inactive
qtc (GeneID 33739) | DRSC02364 | -0.256 | 0.386 | 0.0329 | inactive
qtc (GeneID 33739) | DRSC02365 | -0.392 | -2.81 | -0.263 | inactive
qtc (GeneID 33739) | DRSC27377 | 0.406 | 0.225 | 0.64 | inactive
Ilp7 (GeneID 31328) | DRSC17895 | 0.617 | 0.303 | 0.541 | inactive
CG13228 (GeneID 36178) | DRSC06348 | -4.31 | -0.414 | -4.37 | inactive
CG13228 (GeneID 36178) | DRSC27946 | 0.538 | -1.02 | 0.515 | inactive
lcs (GeneID 33120) | DRSC20580 | 0.319 | -1.61 | 0.367 | inactive
lcs (GeneID 33120) | DRSC25611 | 0.883 | 0.243 | -0.199 | inactive
CG34126 (GeneID 318872) | DRSC02726 | -0.238 | 0.626 | -1.11 | inactive
CG34126 (GeneID 318872) | DRSC22079 | 0.996 | -1.81 | -0.97 | inactive
CG8032 (GeneID 41026) | DRSC16365 | 0.0791 | 0.834 | -1.87 | inactive
CG8032 (GeneID 41026) | DRSC29586 | -0.462 | -0.131 | 0.114 | inactive
CG13367 (GeneID 31013) | DRSC18485 | 0.0867 | 0.248 | -2.05 | inactive
CG13367 (GeneID 31013) | DRSC18486 | 0.95 | 1.52 | 0.864 | inactive
CG42264 (GeneID 31504) | DRSC18074 | -0.235 | -0.689 | 0.725 | inactive
CG42264 (GeneID 31504) | DRSC18075 | -0.737 | 0.0455 | 0.792 | inactive
CG42264 (GeneID 31504) | DRSC28051 | 0.855 | 0.125 | 0.0893 | inactive
CR33319 (GeneID 3772025) | DRSC01826 | -0.142 | 0.381 | 0.573 | inactive
CG8401 (GeneID 36770) | DRSC07165 | -0.175 | 0.124 | -0.129 | inactive
lncRNA:CR43151 (GeneID 19835373) | DRSC40509 | -0.286 | -1.79 | -1.6 | inactive
CG5273 (GeneID 31021) | DRSC18612 | -0.525 | 0.615 | 0.926 | inactive
CG13044 (GeneID 39795) | DRSC09925 | 0.0367 | -1.16 | 1.67 | inactive
CG13044 (GeneID 39795) | DRSC28609 | -0.00826 | -0.917 | -0.306 | inactive
Uba1 (GeneID 35998) | DRSC07567 | -1.81 | -4.9 | 0.874 | active
Uba1 (GeneID 35998) | DRSC28350 | -0.537 | -0.216 | 0.368 | inactive
Polr3C (GeneID 41542) | DRSC14490 | -0.602 | -0.947 | 0.299 | inactive
Polr3C (GeneID 41542) | DRSC28198 | 0.696 | 0.273 | 0.451 | inactive
Dysb (GeneID 40052) | DRSC10730 | 0.73 | 0.569 | 1.66 | inactive
CG8419 (GeneID 34118) | DRSC03087 | -1.18 | -2.69 | -0.649 | inactive
Acsf3 (GeneID 31668) | DRSC18146 | -0.245 | 0.381 | -0.751 | inactive
Chchd2 (GeneID 32701) | DRSC19931 | 0.121 | 0.01 | 0.323 | inactive
Chchd2 (GeneID 32701) | DRSC29551 | -1.38 | 0.101 | -0.305 | inactive
CG7484 (GeneID 39969) | DRSC10853 | 0.424 | 0.756 | 0.772 | inactive
CG11425 (GeneID 40472) | DRSC11657 | -1.55 | -1.34 | -0.342 | inactive
CG11425 (GeneID 40472) | DRSC28400 | 0.079 | -0.459 | -0.767 | inactive
Cyp6v1 (GeneID 33056) | DRSC20565 | 0.755 | 0.457 | -0.841 | inactive
Cyp6v1 (GeneID 33056) | DRSC29247 | -0.503 | -0.682 | -0.818 | inactive
NijB (GeneID 40057) | DRSC09850 | -0.353 | -1.83 | 0.247 | inactive
CG34459 (GeneID 5740101) | DRSC06973 | 0.249 | -3.1 | 1.02 | inactive
ttk (GeneID 48317) | DRSC14078 | -0.439 | 0.991 | -0.681 | inactive
ttk (GeneID 48317) | DRSC17091 | 0.546 | 1.7 | -0.898 | inactive
ttk (GeneID 48317) | DRSC27078 | 1.01 | 0.978 | 0.55 | inactive
sav (GeneID 252554) | DRSC14681 | 1.06 | 0.606 | 0.166 | inactive
sav (GeneID 252554) | DRSC14682 | 0.143 | 0.558 | 0.591 | inactive
CG14891 (GeneID 42013) | DRSC15013 | -7.18 | -4.97 | 0.129 | active
Myb (GeneID 32543) | DRSC20260 | -0.701 | 2.04 | 3.64 | active
Cht12 (GeneID 246535) | DRSC03844 | 0.762 | -2.75 | 0.149 | inactive
CG5151 (GeneID 39772) | DRSC23220 | 0.556 | 0.417 | -0.562 | inactive
CG5151 (GeneID 39772) | DRSC29097 | -3.57 | -0.881 | -2.96 | inactive
CG5151 (GeneID 39772) | DRSC39056 | 2.51 | 1.83 | 2.61 | inactive
CG33796 (GeneID 3771914) | DRSC38839 | -1.01 | 0.248 | -1.33 | inactive
l(3)05822 (GeneID 47260) | DRSC16202 | 0.0397 | 2.12 | 1.98 | active
l(3)05822 (GeneID 47260) | DRSC24720 | 0.275 | 0.915 | 0.88 | inactive
CG32829 (GeneID 318235) | DRSC00961 | 0.313 | -6.35 | 0.00958 | inactive
CG32829 (GeneID 318235) | DRSC22805 | -0.531 | -1.07 | -2.22 | inactive
CG5281 (GeneID 41375) | DRSC15761 | 0.52 | 0.38 | 0.507 | inactive
CG15743 (GeneID 32279) | DRSC19709 | -0.0435 | 0.00129 | -5.18 | inactive
CG15743 (GeneID 32279) | DRSC26389 | -0.329 | 0.951 | 1.08 | inactive
CG15743 (GeneID 32279) | DRSC41575 | 0.288 | 1.22 | 0.685 | inactive
